Measured data: PubChem BioAssay AID624099 (ICCB-Longwood, 2012)
Purpose: 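Knock-downs relieving repression by E2 of an HPV18 LCR luciferase reporter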 (primary screen). Cell system: human C33A cervical carcinoma cells (HPV-negative) stably expressing BPV1 E2 and an HPV18 LCR luciferase reporter. Reagents: siRNA pool against human genes, 40 nM. Time to read-out: 72 h. Read-out: 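HPV18 LCR reporter light per well, converted to plate-wise z-scores that exclude control wells, and averaged over triplicate plates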. Scale: mean z-score and z-score: higher = stronger reporter signal, weaker E2 silencing. Call rule: 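Hit if mean z-score reaches 2 and two or more of three replicate z-scores also reach 2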.
In all, the deposit lists about 21,000 reagents; below is a part drawn at random. Of all reagents, 497 (2.4%) got an active call. 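Higher z means weaker E2 silencing; only reporter increases were scored, and knock-downs that hurt cell survival may mask genuine repressor factors.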 Entries without a mark were called inactive.

| target | mean z-score | z-score, replicate A | z-score, replicate B | z-score, replicate C |
| --- | --- | --- | --- | --- |
| ZDHHC18 | 2.72 (active) | 2.88 | 2.79 | 2.49 |
| ABCB7 | 0.43 | 0.34 | 0.66 | 0.31 |
| GATAD2B | 0.45 | 0.68 | 0.52 | 0.14 |
| MPIG6B | -0.2 | -0.46 | -0.02 | -0.11 |
| SCN2B | 0.89 | 0.98 | 0.87 | 0.82 |
| PRR19 | 0.78 | 0.82 | 0.7 | 0.81 |
| POLA2 | 0.31 | 0.51 | 0.37 | 0.06 |
| ADAM23 | -0.18 | -0.02 | -0.32 | -0.2 |
| ADGRG4 | -1.03 | -1.15 | -1.03 | -0.91 |
| RUSF1 | 0.25 | 0.05 | 0.08 | 0.62 |
| MTF1 | -1.43 | -1.15 | -1.39 | -1.74 |
| SPZ1 | 1.2 | 0.87 | 1.7 | 1.02 |
| FAM27E3 | 0.47 | 0.14 | 0.48 | 0.81 |
| IQCB2P | 0.72 | 0.52 | 0.89 | 0.75 |
| KCNG2 | 0.51 | 0.82 | 0.36 | 0.34 |
| FOLR3 | -0.28 | -0.37 | -0.17 | -0.32 |
| HNRNPA1L2 | 0.71 | 1.41 | 0.31 | 0.4 |
| HAPLN4 | 0.01 | 0.4 | -0.07 | -0.3 |
| LOC388432 (retired record) | 0.42 | 0.43 | 0.18 | 0.66 |
| MMP17 | -0.19 | -0.1 | -0.26 | -0.21 |
| UGT1A4 | 1.09 | 0.88 | 1.29 | 1.11 |
| ACTL6A | -1.44 | -1.36 | -1.52 | -1.43 |
| HOXC5 | 2.47 (active) | 2.35 | 2.6 | 2.46 |
